## Sequence variants of PSTVd stem 3 after infection

Region: stem 3 of PSTVd (intermediate strain), upper and lower strand joined, each 5' to 3', the first 8 letters being the upper strand. Wild type: GUGGUUCCGGAACCGC. Varied positions (N): GUGGUUCCGNANNCNN.

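Three N. benthamiana plants were inoculated with the whole mutant pool. Progeny were sequenced from the inoculated region (day 5), the margin of the inoculated leaf (day 10) and systemic leaves (day 12).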

Values are reads per thousand in the sample; higher means more abundant, 0 means not found.
Each site shows the three plants.
"Pool" is the share in the plasmid pool used as inoculum, on the same scale.
The inoculated region was read from the minus strand, the other sites from the plus strand.
With 27,691-54,225 reads a sample, very low values are single reads.

sequence,pool,inoculated region,leaf margin,systemic leaves
GUGGUUCCGCAUCCCU,0.631,0.213 0.345 0.351,0 0.0318 0.0361,0 0 0
GUGGUUCCGCAUCCGA,0.769,0.293 0.323 0.162,0 0 0.0361,0.0746 0.0184 0
GUGGUUCCGCAUCCGC,0.939,0.293 0.173 0.162,0 0 0,0.0186 0 0
GUGGUUCCGCAUCCGG,0.708,0.426 0.410 0.162,0 0 0.0722,0.130 0 0.0243
GUGGUUCCGCAUCCGU,1.00,0.400 0.367 0.270,0 0.0318 0,0 0 0
GUGGUUCCGCAUCCUA,0.908,0.453 0.367 0.270,0 0 0,0 0 0
GUGGUUCCGCAUCCUC,0.831,0.213 0.323 0.162,0 0 0,0 0 0
GUGGUUCCGCAUCCUG,0.846,0.320 0.431 0.297,0.0283 0 0,0 0 0
GUGGUUCCGCAUCCUU,0.985,0.347 0.496 0.432,0 0 0,0 0 0
GUGGUUCCGCAUGCAA,0.800,0.373 0.453 0.243,0 0 0.0722,0 0 0
GUGGUUCCGCAUGCAC,0.831,0.293 0.237 0.405,0 0 0,0 0 0
GUGGUUCCGCAUGCAG,1.02,0.213 0.323 0.243,0.0283 0.0318 0,0 0 0
GUGGUUCCGCAUGCAU,0.970,0.933 1.06 1.22,0.765 0.891 0.289,0 0 0
GUGGUUCCGCAUGCCA,0.877,0.213 0.323 0.135,0 0.0318 0,0 0 0
GUGGUUCCGCAUGCCC,1.66,0.613 0.604 0.649,0.0567 0.0318 0,0 0 0
GUGGUUCCGCAUGCCG,0.893,0.373 0.431 0.270,0 0.0318 0,0 0 0
GUGGUUCCGCAUGCCU,0.846,0.320 0.302 0.297,0.0283 0 0,0 0 0
GUGGUUCCGCAUGCGA,0.939,0.347 0.302 0.270,0.0567 0 0,0 0 0
GUGGUUCCGCAUGCGC,0.985,0.400 0.108 0.270,0 0 0.0722,0 0 0
GUGGUUCCGCAUGCGG,1.03,0.720 0.733 0.594,0 0 0.0361,0 0 0
GUGGUUCCGCAUGCGU,0.816,0.293 0.302 0.270,0 0 0.0361,0 0 0
GUGGUUCCGCAUGCUA,0.970,0.267 0.259 0.162,0 0 0,0 0 0
GUGGUUCCGCAUGCUC,1.75,0.533 0.604 0.432,0 0.0318 0.867,0 0 0.0243
GUGGUUCCGCAUGCUG,0.877,0.400 0.302 0.243,0 0.0318 0,0 0 0
GUGGUUCCGCAUGCUU,0.631,0.187 0.431 0.216,0 0.0636 0,0 0 0
GUGGUUCCGCAUUCAA,1.71,1.31 0.970 1.08,0.0283 0 0.0722,0.130 0 0
GUGGUUCCGCAUUCAC,0.677,0.853 0.712 1.00,0.0283 0.0318 0.325,0 0 0
GUGGUUCCGCAUUCAG,0.877,0.906 0.712 0.865,0 0 0,0 0 0
GUGGUUCCGCAUUCAU,0.646,0.826 0.798 0.757,0 0.732 0.542,0 0 0
GUGGUUCCGCAUUCCA,0.769,0.400 0.280 0.351,0 0.0636 0,0 0 0
GUGGUUCCGCAUUCCC,1.31,0.666 0.647 0.513,0.0283 0 0.0361,0.0932 0 0
GUGGUUCCGCAUUCCG,0.954,0.213 0.302 0.135,0 0 0,0 0 0
GUGGUUCCGCAUUCCU,0.877,0.800 0.798 0.865,0 0 0,0 0 0
GUGGUUCCGCAUUCGA,0.800,0.187 0.367 0.189,0 0 0.0361,0 0 0
GUGGUUCCGCAUUCGC,0.785,0.240 0.323 0.351,0 0 0,0 0 0
GUGGUUCCGCAUUCGG,0.877,0.133 0.280 0.162,0 0 0,0 0 0
GUGGUUCCGCAUUCGU,1.06,1.09 0.561 0.622,0.0283 0 0,0.205 0 0
GUGGUUCCGCAUUCUA,0.846,0.187 0.216 0.270,0 0.0318 0,0 0 0
GUGGUUCCGCAUUCUC,1.06,0.426 0.453 0.162,0 0 0,0 0 0
GUGGUUCCGCAUUCUG,1.22,0.533 0.453 0.351,0.0283 0.0636 0.0361,0 0 0
GUGGUUCCGCAUUCUU,0.723,0.853 0.733 0.730,0 0 0.469,0 0 0
GUGGUUCCGGAAACAA,0.939,0.347 0.410 0.324,0 0.0318 0.0361,0 0 0
GUGGUUCCGGAAACAC,0.985,0.213 0.388 0.189,0.0283 0 0,0 0 0
GUGGUUCCGGAAACAG,0.862,0.373 0.518 0.270,0 0 0,0 0 0
GUGGUUCCGGAAACAU,0.816,0.853 0.647 0.703,0 0.0318 0,0 0 0
GUGGUUCCGGAAACCA,0.708,0.426 0.237 0.243,0 0.0636 0.0722,0 0 0
GUGGUUCCGGAAACCC,0.816,0.586 0.496 0.243,0.0283 0 0,0 0 0
GUGGUUCCGGAAACCG,0.631,0.240 0.259 0.351,0.0283 0 0,0 0 0
GUGGUUCCGGAAACCU,0.723,0.187 0.345 0.351,0.0283 0 0,0 0 0
GUGGUUCCGGAAACGA,0.893,0.426 0.496 0.270,0.0283 0 0,0.0186 0 0
GUGGUUCCGGAAACGC,0.846,0.506 0.453 0.459,0.595 0.382 0.253,0.280 0.295 0.389
GUGGUUCCGGAAACGG,0.923,0.347 0.237 0.297,0.0283 0 0.144,0.0186 0 0
GUGGUUCCGGAAACGU,1.43,0.666 0.474 0.297,0 0 1.05,0.0932 0.0184 0.0243
GUGGUUCCGGAAACUA,1.28,0.480 0.345 0.243,0 0 0,0.0373 0 0
GUGGUUCCGGAAACUC,0.846,0.240 0.367 0.243,0 0.0318 0,0.0186 0 0
GUGGUUCCGGAAACUG,0.877,0.320 0.216 0.324,0.0283 0 0.0722,0 0 0
GUGGUUCCGGAAACUU,0.954,0.347 0.410 0.243,0 0 0.0361,0 0 0
GUGGUUCCGGAAAGUU,0.0462,0 0.0647 0,0 0 0,0 0 0
GUGGUUCCGGAACAGC,0.123,0.533 0.345 0.540,0.906 0.604 0.614,0.615 0.664 0.584
GUGGUUCCGGAACAGG,0.0154,0 0 0,0 0 0,0 0.0553 0
GUGGUUCCGGAACCAA,0.693,0.320 0.453 0.297,0 0 0,0 0 0
GUGGUUCCGGAACCAC,1.42,15.4 11.5 19.6,6.80 5.15 13.9,5.98 9.90 6.23
GUGGUUCCGGAACCAG,0.816,0.426 0.561 0.405,0 0.0318 0,0 0 0
GUGGUUCCGGAACCAU,1.00,0.640 0.798 0.811,0 1.24 0.253,0 0 0
GUGGUUCCGGAACCCA,0.769,0.347 0.388 0.270,0.0283 0 0,0 0 0
GUGGUUCCGGAACCCC,0.908,0.400 0.604 0.297,0 0.0954 0.0361,0.0373 0.0922 0.0730
GUGGUUCCGGAACCCG,1.08,0.347 0.388 0.243,0 0 0,0 0 0
GUGGUUCCGGAACCCU,0.816,0.347 0.280 0.0540,0 0.0318 0,0 0 0

Extract of 9 entries:

- GUGGUUCCGCAUGCUU (pool 0.631) -> inoculated region 0.187 0.431 0.216; leaf margin 0 0.0636 0; systemic leaves 0 0 0
- GUGGUUCCGGAAACAA (pool 0.939) -> inoculated region 0.347 0.410 0.324; leaf margin 0 0.0318 0.0361; systemic leaves 0 0 0
- GUGGUUCCGCAUGCAG (pool 1.02) -> inoculated region 0.213 0.323 0.243; leaf margin 0.0283 0.0318 0; systemic leaves 0 0 0
- GUGGUUCCGCAUGCGU (pool 0.816) -> inoculated region 0.293 0.302 0.270; leaf margin 0 0 0.0361; systemic leaves 0 0 0
- GUGGUUCCGCAUCCGG (pool 0.708) -> inoculated region 0.426 0.410 0.162; leaf margin 0 0 0.0722; systemic leaves 0.130 0 0.0243
- GUGGUUCCGCAUGCGA (pool 0.939) -> inoculated region 0.347 0.302 0.270; leaf margin 0.0567 0 0; systemic leaves 0 0 0
- GUGGUUCCGGAAACGG (pool 0.923) -> inoculated region 0.347 0.237 0.297; leaf margin 0.0283 0 0.144; systemic leaves 0.0186 0 0
- GUGGUUCCGGAAACUU (pool 0.954) -> inoculated region 0.347 0.410 0.243; leaf margin 0 0 0.0361; systemic leaves 0 0 0
- GUGGUUCCGGAAACGA (pool 0.893) -> inoculated region 0.426 0.496 0.270; leaf margin 0.0283 0 0; systemic leaves 0.0186 0 0

Sequences that differ at fixed positions probably stem from PCR or sequencing errors, and defective variants can be carried along by functional ones.
Wild type was 17.3 per thousand in the pool and the most common sequence in every sample (inoculated region 330, 345, 235; leaf margin 794, 766, 816; systemic leaves 830, 792, 869).

The measurements come from Wu et al. 2024 (doi:10.1371/journal.ppat.1012142).